In patent US20030147847A1 (IMMUNEX, published 2003):

Molecular target: T1, Full length UL16 on transfected 293 EBNA cells (human cytomegalovirus, UniProt P16757 27-230)
T1 construct: whole, on cells; also called UL16 FL
T1 sequence: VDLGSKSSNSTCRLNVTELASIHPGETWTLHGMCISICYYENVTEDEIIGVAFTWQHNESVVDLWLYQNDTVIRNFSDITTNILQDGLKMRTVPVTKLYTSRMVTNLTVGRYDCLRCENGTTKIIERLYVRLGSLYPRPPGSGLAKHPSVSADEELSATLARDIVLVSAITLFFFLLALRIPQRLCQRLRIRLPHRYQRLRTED
Test: flow cytometry, transfected 293 EBNA cells, 2 µg Fc protein + goat anti-human IgG PE

B1: hCD40/Fc (Fc fusion, human, UniProt P25942 21-193, looked up)
chain: EPPTACREKQYLINSQCCSLCQPGQKLVSDCTEFTETECLPCGESEFLDTWNRETHCHQHKYCDPNLGLRVQQKGTSETDTICTCEEGWHCTSEACESCVLHRSCSPGFGVKQIATGVSDTICEPCPVGFFSNVSSAFEKCHPWTSCETKDLVVQQAGTNKTDVVCGPQDRLR
notes: Control Fc construct; not shown: Fc portion not described
- Mean Fluorescence Intensity (MFI): 11.5 MFI
